# Measurements reported in PMC7949097, “Human Gb3/CD77 synthase produces P1 glycotope-capped N-glycans, which mediate Shiga toxin 1 but not Shiga toxin 2 cell entry” (2021).
# Target: SapD glycoform 5, human saposin D carrying the P1 glycotope on its N-glycan (human) (UniProt P07602)
# Test: SPR
substance,measurement,value
Shiga toxin 1 B subunit (Stx1B) used in the SPR analysis (domain or fragment),Kd,33.1 µM
